## Sequence variants of PSTVd loop 6 after infection

From the data files of Wu et al. 2024, doi:10.1371/journal.ppat.1012142.

Region: loop 6 of PSTVd (intermediate strain), upper and lower strand joined, each 5' to 3', the first 5 letters being the upper strand, closing pairs included. Wild type: UGACCGCGAG. Varied positions (N): UNNNCGNNNG.

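A pool of all variants was put on leaves of three Nicotiana benthamiana plants. Samples came from the inoculated region at 5 days, the leaf margin at 10 and upper systemic leaves at 12.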

Numbers give reads per thousand; 0 = not seen among the reads, higher = more abundant.
Each value is the mean of three plants.
"Pool" is the share in the plasmid pool used as inoculum, on the same scale.
The inoculated region was read from the minus strand, the other sites from the plus strand.
Samples held 36,220 to 57,551 reads, so the smallest values rest on one or two reads.
For reference, wild type rose from 20.7 per thousand in the pool to 195, 198, 203 (inoculated region), 629, 591, 734 (leaf margin) and 942, 870, 868 (systemic leaves).
The authors trace changes outside the varied positions to PCR and sequencing errors or to mutation in the plant; presence does not show that a variant is infectious alone.

sequence	pool	inoculated region	leaf margin	systemic leaves
UGCGCGAAAG	0.275	0.0844	0	0
UGGUCGGCCG	0.235	0.0951	0	0
UUAGCGGGCG	0.183	0.637	0.0782	0
UGAGCGGCUG	0.131	0.0780	0	0.0331
UUCACUUUUG	0.0261	0	0	0
UGCACGCAUG	0.209	0.0892	0.0155	0
UCCGCGAGCG	0.170	0.0469	0	0
UCACCGUAUG	0.222	0.107	0.124	0
UCUUCGAUAG	0.366	0.0720	0.0851	0
UUUUCGCAUG	0.0654	0.0965	0.00773	0
UGCGCGCUUG	0.209	0.0894	0	0
UCCACGGGUG	0.131	0.119	0.00920	0
UCUGCGCUGG	0.288	0.0596	0.0184	0.00684
UACACGGAAG	0.0523	0.707	0.0874	0
UGGGCGAACG	0.183	0.0948	0	0
UUAUCGUCAG	0.353	0.107	0.00920	0
UGCUCGUCAG	0.275	0.0592	0	0
UUAUCGCGCG	0.261	0.108	0	0
CGACCGUUAG	0.0131	0.529	0.110	0
UUUGCGAACG	0.183	0.0954	0.00773	0
UAACCGGAUG	0.0915	0.113	0.0261	0
UCUGCGGUCG	0.261	0.0599	0	0
UGUACGGCGG	0.340	0.136	0.0232	0.00599
UCCUCGAGCG	0.235	0.0893	0	0
UGGUCGUCGG	0.170	0.125	0.00773	0
UGGUCGCUGG	0.196	0.0710	0.0169	0
UAGCCGGAGG	0.222	0.0658	0.0261	0
UUGACGAAGG	0.157	0.0299	0	0
UCUACCUUGG	0.0131	0	0	0
UAACCGCAUG	0.0784	0.566	0.102	0.0270
UUUUCGCUAG	0.118	0.101	0.0169	0
UAGUCGGUUG	0.235	0.0898	0	0
UGUCCGGAAG	0.0915	0.137	0.00773	0
UUAACGCGAG	0.301	0.244	0.163	0.0885
UAAACGAUCG	0.209	0.588	0.0499	0.0535
UACUCGUCAG	0.196	0.0840	0	0
UUGUCGACUG	0.340	0.0900	0.00773	0.00684
UAUACGCAGG	0.235	0.107	0	0
UAAUCGUUGG	0.314	0.0416	0	0
UUAGCGCCCG	0.366	0.0656	0	0.00684

Excerpt, the final 4 entries:

sequence,pool,inoculated region,leaf margin,systemic leaves
UUGUCGACUG,0.340,0.0900,0.00773,0.00684
UAUACGCAGG,0.235,0.107,0,0
UAAUCGUUGG,0.314,0.0416,0,0
UUAGCGCCCG,0.366,0.0656,0,0.00684